{
  "source": "the supplement of paper PMC9931576",
  "binders": {"B1": {"name": "BD56-1301 (protein)", "chain 1": "QVQLVQSGADVKKPGSSVKVSCKASGGTFSSYSIVWVRQAPGQGLEWMGRIIPILDVANYAQLFQGRVTITADRSANTAYLEVSSLRSEDTAVYYCARETGTTGTPWFIPWGQGTLVIVSS", "chain 2": "QSVLTQPPSVSGAPGQRVTISCTGSDSNIGAGYDVHWYQKLPGTAPKLLIYGNNNRPSGVPDRFTGSKSDTSVSLAITGLQAEDEADYYCQSYDSGLIGVIFGGGTKLTVL"}, "B2": {"name": "BD56-1299 (protein)", "chain 1": "QVQLVESGGGVVRPGRSLRLSCATSGFTFGDYGIHWVRQAPGKVLEWVAVISDDGGYKSYSDSVKGRFTISRDNSKNTVYLQMTNLRAEDTAVYYCARDYGDYVTHFDYWGQGTLVTVSS", "chain 2": "DIQMTQSPSSLSASVGDRVTITCRASQSVIKYLNWYQQRPGRAPKLLIYDASILESGVPSRFSGSGSGTDFTLTISSLHLEDFATYYCQQSYNTPPWTFGQGTRVEIK"}, "B3": {"name": "BD56-1294 (protein)", "chain 1": "QVQLVESGGGVVQPGRSLRLSCAASGFTFRSYGMYWVRQAPGKGLEWVAVISYDGDDKYYADSVKGRFTISRDNSKNTLYLQMNSLRVVDTAVYYCAKGGGGPYCGGGNCYSTYFDYWGQGTLVTVSS", "chain 2": "DIQMTQSPSTLSASVGDRVTITCRASQSLSSWLAWYQQKPGKAPKLLIYEASSLESGVPSRFSGSGSGTEFTLTISGLQPDDFATYYCQQYNSYSAFGQGTKLEIK"}, "B4": {"name": "BD56-1295 (protein)", "chain 1": "QVQLVQSGAEVKKPGSSVKVSCKASGGTFSSSAINWVRQAPGQGLEWLGRTIPILDITNYAQKFQDRVTLSADKSTGTVYMELSGLRSDDTAVYYCARDQTPVTTFGIGHYYGMDVWGQGTTVTVSS", "chain 2": "DIQMTQSPSTLSASVGDRVTITCRASQRIDNWVAWYQQKPGKAPKLLIYDASSLLIGVPSRFSGSGSGTEFILAISSLQPDDFATYYCQQYNSHPMFGQGTKVEIK"}, "B5": {"name": "BD56-1291 (protein)", "chain 1": "QVQLVQSGADVKKPGSSVKVSCKASGDTFSSHSISWVRQAPGQGPEWMGTIIPTLGIANIAQRFQGRVTITADKSTSTAYMEVSSLRSEDTAVYFCAKSYYYESRGLAADAFDIWGQGTMVTVSS", "chain 2": "QSVLAQPPSVAGAPGQRVTISCTGSNSNIGAGYDVHWYQQLPGTAPKFLIFGNNNRPSGVPDRFSGSKSGTSASLAITGLQAEDEADYYCQSYDSSLIGPVFGGGTKLTVL"}, "B6": {"name": "BD56-1292 (protein)", "chain 1": "QLQLQESGPGLVKPSETLSLTCTVSGGSISSSSYYWGWIRQPPGKGLEWIGNIYYSGTSYYKPSLKSRVTISVDTSKNQFSLKLTSVTAADTAVYYCARRGRIVGSTVVPFAFDIWGQGTMVTFSS", "chain 2": "QSALTQPASVSGSPGQSITVSCTGTSSDVGGYDHVSWYQQHPGKAPKLMIYDVINRPSGVSNRFSGAKSGNTASLTISGLQSEDEADYYCSSYTTSSTLFGGGTKLTVL"}},
  "assay_in_all_cases": "pseudovirus neutralization IC50; higher = weaker neutralization",
  "key": {"[1]": {"target": "SARS-CoV-2 Omicron BA.1 spike pseudovirus", "experimental": "(§1)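 Single-round VSV luciferase pseudovirus mixed with antibody dilutions for 1 h and put on Huh-7 cells for about a day; IC50 from the dose curve.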"}, "[2]": {"target": "SARS-CoV-2 Omicron BA.2 spike pseudovirus", "experimental": "as §1"}, "[3]": {"target": "SARS-CoV-2 Omicron BA.2.75 spike pseudovirus", "experimental": "as §1"}, "[4]": {"target": "SARS-CoV-2 Omicron BA.5 spike pseudovirus", "experimental": "as §1"}, "[5]": {"target": "SARS-CoV-2 Omicron BQ.1.1 spike pseudovirus", "experimental": "as §1"}, "[6]": {"target": "SARS-CoV-2 Omicron XBB spike pseudovirus", "experimental": "as §1"}, "[7]": {"target": "SARS-CoV-2 early D614G spike pseudovirus", "experimental": "as §1"}},
  "note": "Human monoclonal antibodies against the spike receptor-binding domain (heavy:light variable regions). IC50 against pseudoviruses bearing the spike of naturally observed variants; lower = stronger; >10 µg/ml means not reached at the top dose. No active / inactive call. The stated detection limit is 0.0005 µg/ml; values near or below 0.001 µg/ml lie at the floor of the assay.",
  "data": [
    {"binder": "B1", "values": [
      {"measurement": "pseudovirus neutralization IC50", "setting": "[1]", "value": 0.167, "unit": "µg/mL"},
      {"measurement": "pseudovirus neutralization IC50", "setting": "[2]", "value": 0.136, "unit": "µg/mL"},
      {"measurement": "pseudovirus neutralization IC50", "setting": "[3]", "value": 0.154, "unit": "µg/mL"},
      {"measurement": "pseudovirus neutralization IC50", "setting": "[4]", "value": "> 10", "unit": "µg/mL"},
      {"measurement": "pseudovirus neutralization IC50", "setting": "[5]", "value": "> 10", "unit": "µg/mL"},
      {"measurement": "pseudovirus neutralization IC50", "setting": "[6]", "value": "> 10", "unit": "µg/mL"},
      {"measurement": "pseudovirus neutralization IC50", "setting": "[7]", "value": 0.182, "unit": "µg/mL"}
    ]},
    {"binder": "B2", "values": [
      {"measurement": "pseudovirus neutralization IC50", "setting": "[1]", "value": 0.539, "unit": "µg/mL"},
      {"measurement": "pseudovirus neutralization IC50", "setting": "[2]", "value": 0.58, "unit": "µg/mL"},
      {"measurement": "pseudovirus neutralization IC50", "setting": "[3]", "value": 4.12, "unit": "µg/mL"},
      {"measurement": "pseudovirus neutralization IC50", "setting": "[4]", "value": 2.88, "unit": "µg/mL"},
      {"measurement": "pseudovirus neutralization IC50", "setting": "[5]", "value": 3.6, "unit": "µg/mL"},
      {"measurement": "pseudovirus neutralization IC50", "setting": "[6]", "value": 1.35, "unit": "µg/mL"},
      {"measurement": "pseudovirus neutralization IC50", "setting": "[7]", "value": 0.577, "unit": "µg/mL"}
    ]},
    {"binder": "B3", "values": [
      {"measurement": "pseudovirus neutralization IC50", "setting": "[1]", "value": "> 10", "unit": "µg/mL"},
      {"measurement": "pseudovirus neutralization IC50", "setting": "[2]", "value": "> 10", "unit": "µg/mL"},
      {"measurement": "pseudovirus neutralization IC50", "setting": "[3]", "value": "> 10", "unit": "µg/mL"},
      {"measurement": "pseudovirus neutralization IC50", "setting": "[4]", "value": "> 10", "unit": "µg/mL"},
      {"measurement": "pseudovirus neutralization IC50", "setting": "[5]", "value": "> 10", "unit": "µg/mL"},
      {"measurement": "pseudovirus neutralization IC50", "setting": "[6]", "value": "> 10", "unit": "µg/mL"},
      {"measurement": "pseudovirus neutralization IC50", "setting": "[7]", "value": 1.02, "unit": "µg/mL"}
    ]},
    {"binder": "B4", "values": [
      {"measurement": "pseudovirus neutralization IC50", "setting": "[1]", "value": 0.0114, "unit": "µg/mL"},
      {"measurement": "pseudovirus neutralization IC50", "setting": "[2]", "value": 0.00528, "unit": "µg/mL"},
      {"measurement": "pseudovirus neutralization IC50", "setting": "[3]", "value": 0.0082, "unit": "µg/mL"},
      {"measurement": "pseudovirus neutralization IC50", "setting": "[4]", "value": "> 10", "unit": "µg/mL"},
      {"measurement": "pseudovirus neutralization IC50", "setting": "[5]", "value": "> 10", "unit": "µg/mL"},
      {"measurement": "pseudovirus neutralization IC50", "setting": "[6]", "value": "> 10", "unit": "µg/mL"},
      {"measurement": "pseudovirus neutralization IC50", "setting": "[7]", "value": 0.032, "unit": "µg/mL"}
    ]},
    {"binder": "B5", "values": [
      {"measurement": "pseudovirus neutralization IC50", "setting": "[1]", "value": 0.18, "unit": "µg/mL"},
      {"measurement": "pseudovirus neutralization IC50", "setting": "[2]", "value": 0.0814, "unit": "µg/mL"},
      {"measurement": "pseudovirus neutralization IC50", "setting": "[3]", "value": 0.148, "unit": "µg/mL"},
      {"measurement": "pseudovirus neutralization IC50", "setting": "[4]", "value": 2.31, "unit": "µg/mL"},
      {"measurement": "pseudovirus neutralization IC50", "setting": "[5]", "value": 3.5, "unit": "µg/mL"},
      {"measurement": "pseudovirus neutralization IC50", "setting": "[6]", "value": 2.17, "unit": "µg/mL"},
      {"measurement": "pseudovirus neutralization IC50", "setting": "[7]", "value": 0.441, "unit": "µg/mL"}
    ]},
    {"binder": "B6", "values": [
      {"measurement": "pseudovirus neutralization IC50", "setting": "[1]", "value": 0.193, "unit": "µg/mL"},
      {"measurement": "pseudovirus neutralization IC50", "setting": "[2]", "value": 0.151, "unit": "µg/mL"},
      {"measurement": "pseudovirus neutralization IC50", "setting": "[3]", "value": 0.617, "unit": "µg/mL"},
      {"measurement": "pseudovirus neutralization IC50", "setting": "[4]", "value": 0.196, "unit": "µg/mL"},
      {"measurement": "pseudovirus neutralization IC50", "setting": "[5]", "value": 1.72, "unit": "µg/mL"},
      {"measurement": "pseudovirus neutralization IC50", "setting": "[6]", "value": 1.65, "unit": "µg/mL"},
      {"measurement": "pseudovirus neutralization IC50", "setting": "[7]", "value": 0.193, "unit": "µg/mL"}
    ]}
  ]
}
